Results of unrelated studies side by side (data: NIAID ChemDB).

Shared fields: growth or infection tests; organism: Mycobacterium fortuitum

Lines come from different laboratories, so protocols vary. Two numbers with a dash give a range or band. Blank or dashed fields: not listed here. A number after MIC or MFC names an inhibition level or a share of isolates. ECn: concentration that inhibits the pathogen or its effect by n%.

compound	strain or isolate	measure	method	result
CN1C(=O)C(=O)N(C)C1=S	CA10	MIC		25 µg/mL
CCn1cc(C(=O)O)c(=O)c2cc(F)c(N3CCC(N)C3)nc21	ATCC 6841	MIC		0.25 µg/mL
N/C(=N\N=C\c1ccccc1OCc1ccccc1)c1ccccn1		MIC		25–50 µg/mL
CN[C@@H]1[C@H](O)[C@H](NC)[C@H]2O[C@@]3(O)C(=O)C[C@@H](C)O[C@H]3O[C@@H]2[C@H]1O	ATCC 6841	MBC		>64 µg/mL
CO[C@H]1/C=C/O[C@@]2(C)Oc3c(C)c(O)c4c(O)c(c(/C=N/N5CCN(C6CCCC6)CC5)c(O)c4c3C2=O)NC(=O)/C(C)=C\C=C\[C@H](C)[C@H](O)[C@@H](C)[C@@H](O)[C@@H](C)[C@H](OC(C)=O)[C@@H]1C	48 strains	MIC50		0.12 µg/mL
Nc1ccc(C(=O)O)c(O)c1	198 strains	EC50	agar	>2 µg/mL
CC[C@@H](C)N1CCN(c2cc(=O)c3nc4c(oc3c2)c2c(=O)c3c(O)c(C)c5c(c34)=C(O)[C@@](C)(O/C=C/[C@H](OC)[C@@H](C)[C@@H](OC(C)=O)[C@H](C)[C@H](O)[C@H](C)[C@@H](O)[C@@H](C)/C=C/C=C(/C)C(=O)N2)O5)CC1	20 strains	MIC50		6.25 µg/mL
CO[C@@]1(NC(=O)Cc2cccs2)C(=O)N2C(C(=O)O)=C(COC(N)=O)CS[C@@H]21	18 strains	MIC50		32 µg/mL
CC(C)(C)c1ccc(/C=N/N=C(\N)c2ccccn2)cc1		EC50		>100 µM
CCn1cc(C(=O)O)c(=O)c2cc(F)c(N3CCNCC3)nc21	10 strains	MIC		8 µg/mL
CCC(C)(C)c1ccc(/C=N/N=C(\N)c2ccccn2)cc1		EC50		>1000 µM
CCC(C)N1CCN(c2cc(=O)c3nc4c(oc3c2)c2c(=O)c3c(O)c(C)c5c(c34)=C(O)[C@@](C)(O/C=C/[C@H](OC)[C@@H](C)[C@@H](OC(C)=O)[C@H](C)[C@H](O)[C@H](C)[C@@H](O)[C@@H](C)/C=C/C=C(/C)C(=O)N2)O5)CC1	20 strains	MIC50		25 µg/mL
NNC(=O)c1ccc(N)cc1O		MIC		≥1000 µg/mL
CCOc1c(N2CCC(CNC)C2)c(F)cc2c(=O)c(C(=O)O)cn(C3CC3)c12	ATCC 6841	MIC		0.13 µg/mL
CN1CCSC1=[Se]	CA10	MIC		100 µg/mL
CCn1cc(C(=O)O)c(=O)c2cc(F)c(N3CCNCC3)cc21		MIC50		0.5 µg/mL
N/C(=N\N=C\c1ccccc1Sc1ccc(Cl)cc1)c1ccccn1		MIC		12.5–25 µg/mL
CN[C@@H]1[C@@H](O)[C@@H](O[C@@H]2[C@@H](O)[C@H](O[C@H]3O[C@H](CN)CC[C@H]3N)[C@@H](N)C[C@H]2N)OC[C@]1(C)O	31 isolates	MBC90		>64 µg/mL
NC1CCN(c2nc3c(cc2F)c(=O)c(C(=O)O)cn3-c2ccc(F)cc2F)C1	25 isolates	MBC90		>8 µg/mL
CCn1cc(C(=O)O)c(=O)c2cc(F)c(N3CCNC(C)C3)nc21	ATCC 6841	MIC		0.25 µg/mL
CCNCC1CCN(c2c(F)cc3c(=O)c(C(=O)O)cn(CC)c3c2F)C1	10 strains	MIC		≤0.5 µg/mL
CC1(C)N=C([Se])NC1=O	CA10	MIC		6 µg/mL
CCn1cc(C(=O)O)c(=O)c2cc(F)c(N3CCNCC3)cc21	10 strains	MIC		8 µg/mL
CNCC1CCN(c2cc3c(cc2F)c(=O)c(C(=O)O)cn3C(C)(C)C)C1	ATCC 6841	MIC		0.13 µg/mL
CC[C@H]1OC(=O)[C@H](C)[C@@H](O[C@H]2C[C@@](C)(OC)[C@@H](O)[C@H](C)O2)[C@H](C)[C@@H](O[C@@H]2O[C@H](C)C[C@H](N(C)C)[C@H]2O)[C@](C)(OC)C[C@@H](C)C(=O)[C@H](C)[C@@H](O)[C@]1(C)O	48 strains	MIC90		64 µg/mL
NC[C@H]1O[C@H](O[C@H]2[C@H](O)[C@@H](O[C@H]3O[C@H](CO)[C@@H](O)[C@H](N)[C@H]3O)[C@H](N)C[C@@H]2N)[C@H](N)C[C@@H]1O	18 strains	MIC90		32 µg/mL
CC1CN(c2c(F)cc3c(=O)c(C(=O)O)cn(-c4ccc(F)cc4F)c3c2F)CC(C)N1	ATCC 6841	MIC		0.5 µg/mL
CC1(C)NC(=S)NC1=O	CA10	MIC		>100 µg/mL
NCC[C@H](O)C(=O)N[C@@H]1C[C@H](N)[C@@H](O[C@H]2O[C@H](CN)[C@@H](O)[C@H](O)[C@H]2O)[C@H](O)[C@H]1O[C@H]1O[C@H](CO)[C@@H](O)[C@H](N)[C@H]1O	10 strains	MIC90		8 µg/mL
C[C@H]1c2cccc(O)c2C(O)=C2C(=O)[C@]3(O)C(O)=C(C(N)=O)C(=O)[C@@H](N(C)C)[C@@H]3[C@@H](O)[C@@H]21	18 strains	MIC90		32 µg/mL
CC[C@H]1OC(=O)[C@H](C)C(=O)[C@H](C)[C@@H](O[C@@H]2O[C@H](C)C[C@H](N(C)C)[C@H]2O)[C@](C)(OC)C[C@@H](C)C(=O)[C@H](C)[C@H]2N(CCCCn3cnc(-c4cccnc4)c3)C(=O)O[C@]12C	48 strains	MIC50		>64 µg/mL
O=C(O)c1cn(C2CC2)c2nc(N3CCNCC3)c(F)cc2c1=O	ATCC 6841	MIC		0.13 µg/mL
CO[C@H]1/C=C/O[C@@]2(C)Oc3c(C)c(O)c4c(O)c(c5c(c4c3C2=O)NC2(CCN(CC(C)C)CC2)N=5)=NC(=O)/C(C)=C\C=C\[C@H](C)[C@H](O)[C@@H](C)[C@@H](O)[C@@H](C)[C@H](OC(C)=O)[C@@H]1C	20 strains	MIC90		6.25 µg/mL
N/C(=N\N=C\c1ccccn1)c1ccccn1		MIC		>50 µg/mL

The first 4 rows once more:

{"compound": "CN1C(=O)C(=O)N(C)C1=S", "strain or isolate": "CA10", "measure": "MIC", "result": "25 µg/mL"}
{"compound": "CCn1cc(C(=O)O)c(=O)c2cc(F)c(N3CCC(N)C3)nc21", "strain or isolate": "ATCC 6841", "measure": "MIC", "result": "0.25 µg/mL"}
{"compound": "N/C(=N\\N=C\\c1ccccc1OCc1ccccc1)c1ccccn1", "measure": "MIC", "result": "25–50 µg/mL"}
{"compound": "CN[C@@H]1[C@H](O)[C@H](NC)[C@H]2O[C@@]3(O)C(=O)C[C@@H](C)O[C@H]3O[C@@H]2[C@H]1O", "strain or isolate": "ATCC 6841", "measure": "MBC", "result": ">64 µg/mL"}